Measured values as given in ChEMBL document CHEMBL1155806, “Inorganic polyhedral metallacarborane inhibitors of HIV protease: a new approach to overcoming antiviral resistance” (J Med Chem, 2008).

Molecular target: Human immunodeficiency virus type 1 protease (Human immunodeficiency virus 1, UniProt Q72874, A71V/E35D/G73S/I15V/I62V/L10I/L63P/L90M/N37S/R41K)
Experiment: Inhibition of HIV1 recombinant protease L10I/I15V/E35D/N37S/R41K/I62V/L63P/A71V/G73S/L90M mutant expressed in Escherichia coli by spectrophotometric assay

With `CC(C)CN(C[C@@H](O)[C@H](Cc1ccccc1)NC(=O)O[C@H]1CCOC1)S(=O)(=O)c1ccc(N)cc1` as the compound, how does the Ki read?
Its Ki is 150 pM.
